# Test results published in EP1935986B1, “Luminogenic and fluorogenic compounds and methods to detect molecules or conditions” (priority 2005, dated 2006).
# Chains of the proteins cited; added tags and fusions are not shown.
# UniProt P08659, whole entry: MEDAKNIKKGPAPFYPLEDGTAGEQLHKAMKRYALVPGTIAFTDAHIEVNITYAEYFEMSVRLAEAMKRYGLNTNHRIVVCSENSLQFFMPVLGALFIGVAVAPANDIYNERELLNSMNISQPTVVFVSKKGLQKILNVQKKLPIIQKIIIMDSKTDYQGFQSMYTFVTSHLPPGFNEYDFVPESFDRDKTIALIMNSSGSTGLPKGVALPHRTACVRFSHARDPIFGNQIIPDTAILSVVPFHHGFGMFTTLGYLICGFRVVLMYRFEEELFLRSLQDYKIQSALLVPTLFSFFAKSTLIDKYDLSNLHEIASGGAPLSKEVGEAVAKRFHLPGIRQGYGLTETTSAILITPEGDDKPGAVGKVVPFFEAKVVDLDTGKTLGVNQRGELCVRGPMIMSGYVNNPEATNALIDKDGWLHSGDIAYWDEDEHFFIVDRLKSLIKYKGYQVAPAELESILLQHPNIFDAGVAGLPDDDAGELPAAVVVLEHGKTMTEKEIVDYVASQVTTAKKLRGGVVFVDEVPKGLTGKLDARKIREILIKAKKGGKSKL
# Molecular target: QuantiLum Luciferase (Photinus pyralis, UniProt P08659)
# Assay: pH dependence of firefly luciferase luminescence with luciferin or 5'-fluoroluciferin
# Format: biochemical
# Design: purchased Promega Corporation E170
# Settings: pH 7.89 reagent
smiles,measurement,value
"O=C(O)[C@H]1CSC(c2nc3ccc(O)cc3s2)=N1 [luciferin, (4S)-4,5-dihydro-2-(6-hydroxybenzothiazolyl)-4-thiazolecarboxylic acid, reference compound]",increase of luminescence when buffer changed from HEPES to tricine,28%
